The target of series [1] is T1, EutR::MBP (Salmonella enterica serovar Typhimurium SL1344) (UniProt Q9ZFU7).
T1 sequence (looked up): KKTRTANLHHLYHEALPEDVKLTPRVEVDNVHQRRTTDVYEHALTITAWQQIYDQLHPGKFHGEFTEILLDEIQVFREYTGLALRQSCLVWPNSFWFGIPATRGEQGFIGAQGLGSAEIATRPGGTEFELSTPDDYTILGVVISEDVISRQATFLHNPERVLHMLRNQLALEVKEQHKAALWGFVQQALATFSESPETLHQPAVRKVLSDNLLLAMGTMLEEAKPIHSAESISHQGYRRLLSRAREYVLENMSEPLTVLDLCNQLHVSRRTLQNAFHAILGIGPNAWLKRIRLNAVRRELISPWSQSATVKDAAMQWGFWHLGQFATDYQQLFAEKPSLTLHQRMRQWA
Nature of the series: EMSA. The following applies: 1 mM ethanolamine, 150 nM vitamin B12, 25 mM MgCl2, 60 mM HEPES pH 7.5, 300 mM KCl, 25 mM MgCl2, 5 mM EDTA, 3 mM DTT, 500 ug/ml BSA, 50 ng poly-dIdC, 25 min at 25 C, recombinant protein, residues 2-350, protein details: MBP (pMAL-c5X fusion), label: 32P 5' end (T4 PNK), unlabeled as competitor, probe letters rebuilt from the primers and the genome. For orientation: Mobility shift assays separate free from complexed probe on a gel.

The target of series [2] is T1, EutR::MBP (Salmonella enterica serovar Typhimurium SL1344). Nature of the series: competition with a labelled probe. The conditions noted are these: unlabeled ssrB probe outcompetes labeled ssrB, 1 mM ethanolamine, 150 nM vitamin B12, 60 mM HEPES pH 7.5, 300 mM KCl, 25 mM MgCl2, 5 mM EDTA, 3 mM DTT, 500 ug/ml BSA, 50 ng poly-dIdC, 25 min at 25 C, recombinant protein, residues 2-350, protein details: MBP (pMAL-c5X fusion), label: 32P 5' end (T4 PNK), unlabeled as competitor, probe letters rebuilt from the primers and the genome.

Protein sequences can lack the tags named with them.

In the case of “ATAGCAAGATTTTCCAATCACTGGACCTCTTGCTGGCTGATATTGAAAATGCCGTATCGGCTGGAGAAAAAATCGATCAGTTAATTCACACATTAAAAGGCTGTTTAGGTCAAATAGGGCAGACTGAATTGGTATGCTATGTCATAGACATTGAGAATCGCGTAAAAATGGGGAAAATCATCGCGCTGGAGGAACTAACCGACTTACGCCAGAAAATACGTATGATCTTCAAAAACTACACCATTACTTAATATTATCTTAATTTTCGCGAGGGCAGCAAAATGAAAGAATATAAGATCTTATTAGTAGACGATCATGAAATCATCAT (double strand) [ssrB promoter probe]”, the binding result in series [1] and in series [2] was “binds” each time.

Values taken from PMC4643982.
